Experimental data as given in PMC8606745 (Frontiers in Microbiology, 2021).

Assay: general procedure: Fmoc solid-phase peptide synthesis; Fmoc-Rink-ChemMatrix resin (0.69 mmol/g), PAC-MBHA resin (0.24 mmol/g), or Fmoc-Rink-MBHA resin (0.56 mmol/g)
Settings: whole synthesis

Substance | final HPLC purity
C3H7CO-ILPFKFPFFPFRR-NH2 | >99%
C5H11CO-ILPFKFPFFPFRR-NH2 | >99%
C11H23CO-ILPFKFPFFPFRR-NH2 | >99%
FLFSLIPHAIGGLISAFK-NH2 | >99%
FLFSLIPKAIGGLISAFK-NH2 | >99%
FLFSLIPRAIGGLISAFK-NH2 | >99%
FRIRVRV-NH2 | 95%
GIGKFLHSAK-NH2 | >99%
GIGKFLHSAKKFGKAFVGEIMNS-NH2 | 64%
GILGKLWEGVKSIF-NH2 | >99%
HOC11H22CO-ILPFKFPFFPFRR-NH2 | >99%
ILKKLLKKVKKI-NH2 | >99%
ILKKLLKKVKSI-NH2 | >99%
ILPFKFPFFPFRR-NH2 | >99%
ILPWKWPWWPWRR-NH2 | >99%
KQFRIRVRV-NH2 | >99%
KRFRIRVRV-NH2 | >99%
KRFRIRVRVIRK-NH2 | 97%
KRIVKLILKWLR-NH2 | 97%
RFRRLFRIRVRVLKKI-NH2 | >99%
RIVWVRIRRWFV-NH2 | >99%
VFWRRIRVWVIR-NH2 | >99%
VQFRIRVRIVIRK-NH2 | 94%
VQWRIRVRVIKK-NH2 | 98%
VRLIVAVRIWRR-NH2 | 93%
WIRRIKKWIRRVHK-NH2 | >99%
WKKIRVRLSA-NH2 | >99%
WLRRIKAWLRRIKA-NH2 | >99%
WLRRIKAWLRRIKA-OH | >99%
WLRRIKAWLRRKRK-NH2 | >99%
